Pooled drug test results. Numbers come from NIAID ChemDB, via PubChem.

All rows: growth or infection tests; agent: Mycobacterium tuberculosis

MIC50, MIC90 and the like: level of inhibition, or share of isolates inhibited.

structure | mutations | endpoint | tested at | setting | read by | strain | value
CN(C)C(=O)O/N=C1\c2ccccc2-c2c1c(N1CCN(c3ccccn3)CC1)nc1ccc(Br)cc21 | - | MIC | - | - | BACTEC / radiometric | H37Rv | 2.79 µM
COc1c(N2CCNC(C)C2)c(F)cc2c(=O)c(C(=O)O)cn(C3CC3)c12 | - | MIC90 | - | - | - | - | 0.25 µg/mL
Cc1ccc(/C=N/N=c2\scc(-c3cc4cc(Br)ccc4oc3=O)n2Cc2ccccc2)cc1 | - | inhibition | 6.25 µg/mL | - | - | H37Rv | <11%
c1ccc(P(CCCCP(c2ccccc2)c2ccccc2)c2ccccc2)cc1 | - | MIC90 | - | - | broth dilution / resazurin | H37Rv ATTC 27294 | 117.2 µM
O=c1oc2ccccc2cc1-c1cs/c(=N\N=C\c2ccc(Cl)c(Cl)c2)n1Cc1ccccc1 | - | MIC | - | - | - | H37Rv | >6.25 µg/mL
COC(=O)CSc1nnc(-c2ccc([N+](=O)[O-])s2)s1 | - | MIC | - | - | resazurin | H37Rv | 0.78 µg/mL
CC(C)=CCCC(C)(OC1OC(CO)C(O)C(O)C1O)C1CCC2(C)C1C(O)CC1C3(C)CCC(O)C(C)(C)C3C(OC3OC(CO)C(O)C(O)C3O)CC12C | - | inhibition | 200 µM | - | fluorescence | - | 2.62%
O=C1c2cc3c(cc2NC(c2ccccc2F)C1O)OCO3 | - | MIC bound | - | - | resazurin | H37Rv | >6.25 µg/mL
CCc1nc2ccc(Cl)cn2c1C(=O)NCc1ccc(N2CCC(c3ccc(OC(F)(F)F)cc3)CC2)cc1 | cydA | EC50 | - | - | resazurin | Erdman | 0.00013 µM
O=C(Oc1cc(Cl)ccc1C(=O)Nc1cccc(Br)c1)c1cnccn1 | - | MIC100 | - | 14 d | broth dilution | H37Rv | 1 µM
CCN(CC)CCCC(C)Nc1ccnc2cc(Cl)ccc12 | - | MIC | - | - | resazurin | H37Ra | 2612 µM
O=C(Nc1ccc(C(F)(F)F)cc1)c1ccc(Cl)cc1OS(=O)(=O)c1ccccc1 | - | MIC100 | - | 14 d | broth dilution | H37Rv | 1 µM
O=C1C=CC(O)(c2ccccc2)C=C1 | - | MIC | - | - | - | H37Rv | >6.25 µg/mL
COc1c(O)cc2oc(-c3ccc(O)cc3)cc(=O)c2c1O | - | inhibition | 200 µM | - | fluorescence | - | 82.06%
C=C(C)[C@@H]1CCC(C)(O)[C@H](Br)CC[C@@]2(C)[C@H](Cc3cc(ccc3O)C(=O)O1)C(C)=CC[C@@H]2Br | - | MIC | - | - | - | - | >50 µM
COC1(c2nc3ccc(C)cc3s2)C=CC(=NS(=O)(=O)c2ccc(C)cc2)C=C1 | - | inhibition | 6.25 µg/mL | - | - | H37Rv | 30%
S=C(S)Nc1cccc(Cl)c1 | - | MIC bound | - | - | BACTEC | H37Rv | >12.5 µg/mL
CC1(C)S[C@@H]2[C@H](NC(=O)[C@H](N)c3ccccc3)C(=O)N2[C@H]1C(=O)O | - | MIC | - | - | - | BIE | 92 µM
CN[C@@H]1[C@@H](O)C(O[C@@H]2[C@@H](O)[C@H](OC3O[C@H](CN)[C@@H](O)[C@H](O)[C@H]3O)[C@@H](N)C[C@H]2NC(=O)[C@@H](O)CN)OC[C@]1(C)O | - | MIC | - | - | - | OR100 | >200 µg/mL
O=c1c(O)c(-c2ccc(O)cc2)oc2cc(O)cc(O)c12 | - | inhibition | 200 µM | - | fluorescence | - | 68.29%
COc1ccc(OC)c(N=Nc2sc(N)nc2-c2ccccc2)c1 | - | MIC bound | - | - | BACTEC | H37Rv | >6.25 µg/mL
CC1=C(O)C(=O)C=C2C1=CC=C1C2(C)CCC2(C)C3CC(C)(C(=O)O)CCC3(C)CCC12C | - | inhibition | 200 µM | - | fluorescence | - | 69.56%
CC(=O)c1cc(C(C)=O)c(CC(=O)C(=O)Nc2cccc(C)c2C)nc1CC(=O)C(=O)Nc1cccc(C)c1C | - | MIC bound | - | - | BACTEC | H37Rv | >12.5 µg/mL
CCCCS/C(N)=N\N=C\c1ccnnc1 | - | MIC | - | - | - | ATCC 35822 (isoniazid-resistant) | 12.5 µg/mL
C=C(C)[C@@H]1CCC(C)(O)[C@H](Br)CC[C@@]2(C)C(=C(C)CC[C@@H]2Br)Cc2cc(ccc2O)C(=O)O1 | - | MIC | - | - | - | - | >100 µM
N#Cc1ccccc1C(Cl)(Cl)c1cnccn1 | - | inhibition | 12.5 µg/mL | - | BACTEC | H37Rv | 33%
CC(=O)OC1(c2ccccc2)C=CC(=O)C=C1 | - | MIC | - | - | - | H37Rv | >6.25 µg/mL
O=C(CSc1nnc(-c2ccc([N+](=O)[O-])s2)s1)OCc1ccccc1 | - | MIC | - | - | resazurin | H37Rv | 0.78 µg/mL
O=C(O)c1ccc(=O)[nH]c1 | - | MIC90 | - | - | broth dilution / resazurin | H37Rv ATTC 27294 | >359.4 µM
COc1cc(OC)c2c(O)c3c(c(-c4c5c(c(O)c6c(OC)cc(OC)cc46)C(=O)CC(C)(O)O5)c2c1)OC(C)(O)CC3=O | - | MIC | - | - | - | H37Rv | >180 µM
Cn1c(=O)c2c(nc3n(CC(O)CCl)c(=O)ccn23)n(C)c1=O | - | inhibition | 6.25 µg/mL | - | resazurin | H37Rv | 12%
CC1OC(OC2C(OC3CCC4(C)C(CCC5(C)C4CC=C4C6CC(C)(C)CCC6(C(=O)OC6OC(COC7OC(CO)C(O)C(O)C7O)C(O)C(O)C6O)CCC45C)C3(C)CO)OCC(O)C2O)C(O)C(O)C1O | - | inhibition | 200 µM | - | fluorescence | - | 0%
O=c1c2c3c(sc2nc2n1N=CN(c1ccccc1)C2)CCCC3 | - | inhibition | 6.25 µg/mL | - | resazurin | H37Rv | 4%
O=c1oc2ccc(Br)cc2cc1-c1cs/c(=N\N=C\c2cc(Br)ccc2O)n1Cc1ccccc1 | - | MIC | - | - | - | H37Rv | >6.25 µg/mL
CC[C@@H](CO)NCCN[C@@H](CC)CO | - | MIC90 | - | - | broth dilution / resazurin | H37Rv ATTC 27294 | 5.6 µM
CCc1nc(NCCCC(F)(F)F)c2cc(C)sc2n1 | - | EC50 | - | - | resazurin | Erdman | 0.11 µM
C/C(CCl)=N\NC1=NC(C)(CCl)P(=O)(NNc2ncccn2)S1 | - | MIC bound | - | - | BACTEC | H37Rv | >12.5 µg/mL
C[C@@H]1CN(c2c(F)c(N)c3c(=O)c(C(=O)O)cn(C4CC4)c3c2F)C[C@H](C)N1 | - | Median MIC90 | - | - | - | 139 strains | 0.125 µg/mL
NNC(=O)c1ccncc1 | - | MIC | - | - | - | - | 4 µM
Cc1nc2cccc([N+](=O)[O-])c2n1CCCN(C)C | - | MIC bound | - | - | resazurin | H37Rv | >6.25 µg/mL
NNC(=O)c1ccncc1 | - | MIC | - | - | resazurin | H37Ra | 1.9 µM
O=C1CC(Sc2ccccc2)C(O)(c2nc3ccccc3s2)C(Sc2ccccc2)C1 | - | EC50 | - | - | - | H37Rv | <6.25 µg/mL
CNC(=O)c1cccnc1 | - | MIC | - | - | BACTEC | H37Rv | ≥12.5 µg/mL
O=C(O)c1ncccc1O | - | MIC90 | - | - | broth dilution / resazurin | H37Rv ATTC 27294 | 226.4 µM
CCCCCCCCC(OC)C(=O)O | - | MIC | - | - | - | H37Rv | 240 µM
CC(C)(C)C1=CC(=N\S(=O)(=O)c2ccccc2)/C(N=[N+]=[N-])=C(Cl)C/1=N/S(=O)(=O)c1ccccc1 | - | inhibition | 12.5 µg/mL | - | BACTEC | H37Rv | -10%
COCC1(C)C2CC2[C@@]2(C)CC[C@@H](Br)[C@@](C)(O)CC[C@@H](C(C)(C)Br)OC(=O)c3ccc(O)c(c3)CC12 | - | MIC90 | - | - | resazurin | H37Rv (ATCC 27294) | 94 µM
NNC(=O)c1ccncc1 | - | MIC | - | - | - | H37Rv | 0.46 µM
CC1(C)NC(=O)C(NC(=O)C(N)CC(=O)O)CCCCNC(=O)CCNC1=O | - | inhibition | 6.25 µg/mL | - | resazurin | H37Rv | -5%
C[C@H]1COc2c(N3CCN(C)CC3)c(F)cc3c(=O)c(C(=O)O)cn1c23 | - | MIC | - | - | - | 263 strains | 4 µg/mL
COc1cccc(/C=N/NC(=O)C(=O)N/N=C/c2cccc(OC)c2O)c1O | - | MIC bound | - | - | BACTEC | H37Rv | >12.5 µg/mL
O=C(O)C1OC(Oc2cc3oc(-c4ccccc4)cc(=O)c3c(O)c2O)C(O)C(O)C1O | - | inhibition | 200 µM | - | fluorescence | - | 78.47%
CO[C@H]1/C=C/O[C@@]2(C)Oc3c(C)c(O)c4c(=O)c(c5oc6cc(N7CCN(CC(C)C)CC7)cc(=O)c6nc5c4c3=C2O)NC(=O)/C(C)=C\C=C\[C@H](C)[C@H](O)[C@@H](C)[C@@H](O)[C@@H](C)[C@H](OC(C)=O)[C@@H]1C | - | MIC | - | - | - | TN994 | 4 µg/mL
O=C(/C=C/C=C/c1ccc2c(c1)OCO2)N1CCCCC1 | - | MIC | - | - | PCR | rif | >100 µg/mL
OC[C@H]1N[C@H](CO[C@@H]2O[C@H](CO)[C@@H](O)[C@H](O)[C@H]2O)[C@H](O)[C@@H](O)[C@@H]1O | - | inhibition | 12.5 µg/mL | - | BACTEC | H37Rv | 6%
COc1nc2ccc(Br)cc2c2c1C(C)(OCC(O)Cn1ccc(-c3ccc(Cl)c(Cl)c3)n1)c1ccccc1-2 | - | MIC | - | - | BACTEC / radiometric | H37Rv | 5 µM
COc1cc(N=Nc2ccccc2)cc(/C=N/NC(=O)c2cccnc2)c1O | - | MIC bound | - | - | BACTEC | H37Rv | >12.5 µg/mL
O=C(Nc1ccc(Cl)c(Cl)c1)c1ccc(Cl)cc1OS(=O)(=O)c1ccccc1 | - | MIC100 | - | 14 d | broth dilution | H37Rv | 1 µM
C[C@H]1COc2c(N3CCN(C)CC3)c(F)cc3c(=O)c(C(=O)O)cn1c23 | - | MIC90 | - | - | - | - | 1 µg/mL
C/C=C/C/C=C/CCC(=O)[C@H]1O[C@H]1C(N)=O | - | MIC | - | - | - | H37Rv | 3 µg/mL
CO[C@H]1/C=C/O[C@@]2(C)Oc3c(C)c(O)c4c(O)c(c(/C=N/N5CCN(C)CC5)c(O)c4c3C2=O)NC(=O)/C(C)=C\C=C\[C@H](C)[C@H](O)[C@@H](C)[C@@H](O)[C@@H](C)[C@H](OC(C)=O)[C@@H]1C | - | MIC | - | - | resazurin | H37Rv | <0.1 µM
O=C(Oc1cc(Cl)ccc1C(=O)Nc1ccc(C(F)(F)F)cc1)c1cnccn1 | - | MIC100 | - | 14 d | broth dilution | H37Rv | 0.5 µM
OCC1OC(/C(N=Nc2ccccc2)=N/Nc2ccccc2)C(O)C1O | - | inhibition | 12.5 µg/mL | - | BACTEC | H37Rv | 0%
CCc1nc(NCCCc2ccccc2)c2cc(C)sc2n1 | qcrCAB | EC50 | - | - | resazurin | Erdman | 0.025 µM
O=c1oc2ccccc2cc1-c1cs/c(=N\N=C\c2ccc(F)cc2)n1Cc1ccccc1 | - | inhibition | 6.25 µg/mL | - | - | H37Rv | <11%
CCSC1CC(=O)CC(SCC)C1(O)c1ccccc1 | - | EC50 | - | - | - | H37Rv | >6.25 µg/mL
CC[C@@H](CO)NCCN[C@@H](CC)CO | - | MIC | - | - | resazurin | H37Ra | 8 µM
CCCCNc1nc(CC)nc2sc(C)cc12 | - | EC50 | - | - | resazurin | Erdman | 4.4 µM
O=C1C=CC(O)(c2nc3ccccc3o2)C=C1 | - | EC50 | - | - | - | H37Rv | <6.25 µg/mL
Cl/N=C1C=C/C(=N\Cl)C(Cl)=C\1 | - | MIC bound | - | - | BACTEC | H37Rv | >12.5 µg/mL
CS/C(N)=N\N=C\c1cccnc1 | - | MIC | - | - | - | H37Rv (ATCC 27294) | >100 µg/mL
Cc1ccc2nc(CN3CCCC(O)C3)cc(=O)n2c1 | - | inhibition | 6.25 µg/mL | - | resazurin | H37Rv | -3%
CC1=CC[C@H](Br)[C@@]2(C)CC[C@@H](Br)C(C)(O)CC[C@@H](C(C)(C)Br)OC(=O)c3ccc(O)c(c3)C[C@H]12 | - | MIC | - | - | - | - | >100 µM
O=C(Nc1ccc(Cl)c(Cl)c1)C(=O)Nc1ccc(Cl)c(Cl)c1 | - | MIC | - | - | - | - | 4 µM
COc1ccc(-c2cc(=O)c3c(O)c(OC)c(OC4OC(COC5OC(C)C(O)C(O)C5O)C(O)C(O)C4O)cc3o2)cc1 | - | inhibition | 200 µM | - | fluorescence | - | 88.69%
CO[C@H]1/C=C/O[C@@]2(C)Oc3c(C)c(O)c4c(O)c(c(/C=N/N5CCN(C)CC5)c(O)c4c3C2=O)NC(=O)/C(C)=C\C=C\[C@H](C)[C@H](O)[C@@H](C)[C@@H](O)[C@@H](C)[C@H](OC(C)=O)[C@@H]1C | - | MIC | - | - | - | H37Rv | 0.114 µM
CCN1C[C@]2(CO)CC[C@H](OC)[C@]34C5CC6[C@H](OC)C5[C@](O)(C[C@@H]6OC)[C@@](O)(C13)[C@@H](OC)[C@H]24 | - | inhibition | 12.5 µg/mL | - | BACTEC | H37Rv | 18%
Cc1ccc(NC(=O)C(=O)Nc2ccc(C)cc2)cc1 | - | MIC | - | - | - | - | >1000 µM
Cc1cc2nc3ccc(N=Nc4ccc(N(C)C)cc4)cc3n(-c3ccccc3)c-2cc1=N | - | MIC | - | - | - | KM-R | 0.2 µg/mL
CC(=O)N[C@@H](Cc1ccccc1)C(=O)Oc1cc(Cl)ccc1C(=O)Nc1ccc(C(F)(F)F)cc1 | - | MIC100 | - | 14 d | broth dilution | H37Rv | 0.25 µM

ECn: concentration that inhibits the pathogen or its effect by n%. Percent inhibition refers to the dose given; in toxicity tests it is the harm to the cells. An empty or dashed field is not shown. MIC bound comes from a single tested concentration. Lines come from different laboratories, so protocols vary.